Results of unrelated studies side by side (data: NIAID ChemDB).

Common to all: tests in culture; species: Candida parapsilosis; measure: MIC80

Blank or dashed fields: not listed here. Lines come from different laboratories, so protocols vary. MIC50, MIC90 and the like: level of inhibition, or share of isolates inhibited.

SMILES,strain,method,result
CCCCN(Cc1cn(Cc2ccc(Cl)cc2Cl)nn1)CC(O)(Cn1cncn1)c1ccc(F)cc1F,-,-,8 µg/mL
Cc1ccc(-c2c3c(N)c4c(nc3nc3c2c(C)nn3-c2ccccc2)CCCCC4)cc1,CCC 124,broth dilution / absorbance,125 µg/mL
CN(CC(=O)Nc1ccccc1[N+](=O)[O-])CC(O)(Cn1cncn1)c1ccc(F)cc1F,-,-,16 µg/mL
COc1ccc(/C=C2\SC(=O)N(CC(O)(Cn3nccn3)c3ccc(F)cc3F)C2=O)cc1,CNCYP51,-,4.23 µg/mL
O=C(Cc1ccccc1)OC1CCN(CC(O)(Cn2cncn2)c2ccc(F)cc2F)CC1,0306392,broth dilution,0.137 µM
CCCCN(Cc1cn(Cc2cccc(Br)c2)nn1)CC(O)(Cn1cncn1)c1ccc(F)cc1F,-,-,>64 µg/mL
O=C(/C=C/c1ccccc1Br)OC1CCN(CC(O)(Cn2cncn2)c2ccc(F)cc2F)CC1,0306392,broth dilution,0.458 µM
Cc1cc(C)cc(NC(=O)CN(C)CC(O)(Cn2cncn2)c2ccc(F)cc2F)c1,-,-,4 µg/mL
NN(Cc1ccccc1)CC(O)(Cn1cncn1)c1ccc(F)cc1F,ATCC 21019,-,0.125 µg/mL
Cc1ccc(NC(=O)CN(C)CC(O)(Cn2cncn2)c2ccc(F)cc2F)cc1C,-,-,4 µg/mL
CCCCN(Cc1cn(Cc2ccccc2F)nn1)CC(O)(Cn1cncn1)c1ccc(F)cc1F,-,-,2 µg/mL
O=C1S/C(=C\c2ccc(Cl)cc2)C(=O)N1CC(O)(Cn1nccn1)c1ccc(F)cc1F,CNCYP51,-,16.76 µg/mL
CCCCN(Cc1cn(Cc2ccccc2[N+](=O)[O-])nn1)CC(O)(Cn1cncn1)c1ccc(F)cc1F,-,-,4 µg/mL
N#Cc1ccc(/C=C2\SC(=O)N(CC(O)(Cn3nccn3)c3ccc(F)cc3F)C2=O)cc1,CNCYP51,-,4.28 µg/mL
CCCCN(Cc1cn(Cc2cccc(Cl)c2)nn1)CC(O)(Cn1cncn1)c1ccc(F)cc1F,-,-,0.25 µg/mL
COc1ccc(/C=C/C(=O)OC2CCN(CC(O)(Cn3cncn3)c3ccc(F)cc3F)CC2)cc1OC,0306392,broth dilution,0.118 µM
CCCCN(Cc1cn(Cc2cccc([N+](=O)[O-])c2)nn1)CC(O)(Cn1cncn1)c1ccc(F)cc1F,-,-,8 µg/mL
Cn1cccc1/C=C1\SC(=O)N(CC(O)(Cn2nccn2)c2ccc(F)cc2F)C1=O,CNCYP51,-,2.24 µg/mL
CCCCN(Cc1cn(Cc2c(Cl)cccc2Cl)nn1)CC(O)(Cn1cncn1)c1ccc(F)cc1F,-,-,64 µg/mL
O=C1S/C(=C\c2ccncc2)C(=O)N1CC(O)(Cn1nccn1)c1ccc(F)cc1F,CNCYP51,-,36.08 µg/mL
O=C(/C=C/c1ccccc1)OC1CCN(CC(O)(Cn2cncn2)c2ccc(F)cc2F)CC1,0306392,broth dilution,0.008 µM
OC(Cn1cncn1)(Cn1cncn1)c1ccc(F)cc1F,CNCYP51,-,1.16 µg/mL
CN(CC(=O)Nc1cccc([N+](=O)[O-])c1)CC(O)(Cn1cncn1)c1ccc(F)cc1F,-,-,>64 µg/mL
O=C1S/C(=C\c2ccc(F)cc2F)C(=O)N1CC(O)(Cn1nccn1)c1ccc(F)cc1F,CNCYP51,-,8.36 µg/mL
CCCCN(Cc1cn(Cc2ccc(Br)cc2)nn1)CC(O)(Cn1cncn1)c1ccc(F)cc1F,-,-,8 µg/mL

A second listing of 3 rows from above:

SMILES,strain,method,result
CCCCN(Cc1cn(Cc2ccccc2F)nn1)CC(O)(Cn1cncn1)c1ccc(F)cc1F,-,-,2 µg/mL
O=C(Cc1ccccc1)OC1CCN(CC(O)(Cn2cncn2)c2ccc(F)cc2F)CC1,0306392,broth dilution,0.137 µM
CN(CC(=O)Nc1cccc([N+](=O)[O-])c1)CC(O)(Cn1cncn1)c1ccc(F)cc1F,-,-,>64 µg/mL